A mixed list of measured activities; the numbers were collected in NIAID ChemDB.

Common to all: whole-cell or culture tests; species: Herpes simplex virus 1; read-out: EC50

a–b is a range or a potency band.

| structure | cell line | strain or isolate | value |
|---|---|---|---|
| O=C(NCc1ccc(Cl)cc1)c1c[nH]c2c(F)cc(CCCO)cc2c1=O |  | ARAA9 (N961K (V)) | 1.4 µM |
| O=C(O)P(=O)(O)O | HFF | R39 | 222 µM |
| CC(C)c1cn([C@@H]2O[C@H](COP(=O)(O)O)[C@@H](O)[C@H]2O)c(=O)nc1N |  | KOS | >400 µg/mL |
| Cc1cccn2c(C3SCCS3)cnc12 | E6SM | KOS | >1000 µM |
| Nc1nc2c(ncn2C[C@H]2C[C@H]2CO)c(=O)[nH]1 | VERO |  | >50 µM |
| NC1=CC(N)=NS(=O)(=O)N1COCCO | E6SM | F | >400 µg/mL |
| COc1cc(OC)c(NC(=S)Nc2ccc(NC(=O)c3ccco3)cc2)cc1Cl | HFF | Patton | >20 µM |
| O=c1c2cc(Cl)ccc2[nH]c2cc(O)cc(O)c12 | VERO |  | 22 µM |
| CC(=O)O[C@H]1[C@@H](OC(C)=O)[C@@H](CO[Si](c2ccccc2)(c2ccccc2)C(C)(C)C)O[C@@H](O[C@H]2[C@H](OC(C)=O)[C@H]3Sc4c(n(C)c(=O)n(C)c4=O)O[C@H]3O[C@@H]2CO[Si](c2ccccc2)(c2ccccc2)C(C)(C)C)[C@@H]1OC(C)=O | VERO |  | >100 µM |
| Cc1cn([C@@H]2S[C@@H](CO)C[C@@H]2N=[N+]=[N-])c(=O)[nH]c1=O |  |  | >100 µg/mL |
| CN[C@H]1C[C@@H](n2cnc3c(N)ncnc32)[C@H](O)[C@@H]1O | HFF |  | >100 µg/mL |
| C/C(=C\Cn1ccc(=O)[nH]c1=O)CO |  |  | >100 µg/mL |
| CCCCCCCCCCCCCCO[C@H]1O[C@H](CO)[C@@H](O)[C@H](O)[C@H]1O | HFF | R39 | 72 µM |
| Nc1nc2c(ncn2[C@@H]2C[C@H](CO)[C@H]2CO)c(=O)[nH]1 |  | OST (TK-) | 18 µg/mL |
| Nc1ccn(C[C@H]2C[C@H]2CO)c(=O)n1 | VERO |  | >50 µM |
| CCCCCCCCCCCCO[C@H]1O[C@H](COP(=O)(O)C(=O)O)[C@@H](O)[C@H](O)[C@H]1O | HFF | R39 | 144 µM |
| C=C1[C@H](CO)[C@H]1Cn1cnc2c(=O)[nH]cnc21 |  |  | >100 µM |
| Nc1ccn(CC=C(CO)CO)c(=O)n1 |  |  | >100 µg/mL |
| CCCCCCCCCCCCCCCCOCCCOP(=O)(O)OCC(CO)CCn1cnc2c(=O)[nH]c(N)nc21 | MRC-5 |  | 0.7 µM |
| Cn1c2c(c(=O)n(C)c1=O)S[C@@H]1[C@H](O2)O[C@H](COc2ccccc2)[C@@H](OCc2ccccc2)[C@@H]1OCc1ccccc1 | VERO |  | >100 µM |
| CCCc1cn([C@@H]2O[C@H](COP(=O)(O)O)[C@@H](O)[C@H]2O)c(=O)nc1N |  | F | >400 µg/mL |
| [N-]=[N+]=N[C@H]1C[C@H](CO)S[C@H]1n1ccc(N)nc1=O |  |  | >100 µg/mL |
| Nc1ncn([C@@H]2CC[C@H](CO)O2)c(=O)n1 |  |  | >100 µM |
| COc1ccc2sc3c(c2c1)NCCNC3=O |  |  | 1.13 µM |
| C=C1[C@H](CO)[C@H]1Cn1cnc2c(=O)[nH]c(N)nc21 |  |  | >100 µM |
| OC[C@H]1CC(n2cnc3c(NC4CC4)ncnc32)C[C@@H]1CO | E6SM | KOS | >100 µg/mL |
| O=C(O)CP(=O)(O)O | WI-38 |  | <100 µg/mL |
| Nc1ncnc2c1cnn2Cc1cn(CCCCO)nn1 | E6SM | VWM1837 | >400 µg/mL |
| Nc1nc2c(ncn2COCCO)c(=O)[nH]1 | MRC-5 | SC16 | 0.06 µg/mL |
| [N-]=[N+]=N[C@H]1C[C@@H](CO)S[C@@H]1n1cnc2c(=O)[nH]cnc21 |  |  | >100 µg/mL |
| Cc1ccn2c(C(SCCc3ccccc3)SCCc3ccccc3)cnc2c1 | E6SM | B2006 (TK-) | >1000 µM |
| Cn1c2c(c(=O)n(C)c1=O)S[C@H]1[C@@H](O2)O[C@H](CO)[C@@H](O)[C@@H]1O | VERO |  | >100 µM |
| C=C[C@@](C)(CO)CCn1cnc2c(N)ncnc21 |  |  | >100 µg/mL |
| CC(=O)OCCOCN1C=CC(=O)N(COCCO)S1(=O)=O | E6SM | F | >400 µg/mL |
| CCCCCCCCCCCCCCO[C@@H]1O[C@H](COP(=O)(O)C(=O)O)[C@@H](O)[C@H](O)[C@H]1O | HFF | R39 | 64 µM |
| O=C(NCc1ccc(Cl)cc1)c1c[nH]c2c(F)cccc2c1=O |  | ARAA13 (V813M (III)) | 1.5 µM |
| CNc1ncnc2c1cnn2Cc1cn(CCCCO)nn1 | E6SM | KOS | >400 µg/mL |
| Nc1nc2c(ncn2CC(CO)CCO)c(=O)[nH]1 | HL | C42 | 1 µM |
| CNc1ncnc2c1ncn2[C@@H]1S[C@H](CO)C[C@@H]1N=[N+]=[N-] |  |  | >100 µg/mL |
| Cc1ccn2c(C3OCCO3)cnc2c1 | E6SM | B2006 (TK-) | >1000 µM |
| C/C(=C\Cn1cc(C)c(=O)[nH]c1=O)CO |  |  | >100 µg/mL |
| Nc1nc2c(ncn2CCC(CO)CO)c(=O)[nH]1 | MRC-5 |  | 0.25 µM |
| CCOC(=O)C1=CN(COCCO)S(=O)(=O)NC1=O | E6SM | VMW1837 (TK-) | >400 µg/mL |
| Cc1cn([C@@H]2OCC(CO)=C2F)c(=O)[nH]c1=O |  |  | >100 µg/mL |
| Cc1cn([C@@H]2OC3COP(=O)(O)OC3[C@H]2O)c(=O)nc1N |  | F | >400 µg/mL |
| Nc1nc2c(ncn2C[C@]2(CO)C[C@H]2CO)c(=O)[nH]1 |  | OST (TK-) | 137 µg/mL |
| [N-]=[N+]=N[C@H]1C[C@H](CO)S[C@@H]1n1cnc2c(Cl)ncnc21 |  |  | >100 µg/mL |
| CCCCc1cn([C@@H]2O[C@H](COP(=O)(O)O)[C@@H](O)[C@H]2O)c(=O)nc1N |  | McIntyre | >400 µg/mL |
| CC1=C[C@H](n2ccc(N)nc2=O)CC1(CO)CO |  |  | >100 µg/mL |
| OCCCCn1cc(Cn2ncc3c(SCc4ccccc4)ncnc32)nn1 | E6SM | B2006 (TK-) | >400 µg/mL |
| Nc1nc2c(ncn2COCCO)c(=O)[nH]1 | VERO |  | 0.08 µM |
| CC(=O)OCCOCN1C=CC(=O)N(COCCOC(C)=O)S1(=O)=O | E6SM | F | >400 µg/mL |
| CC1=C[C@H](n2cnc3c(N)ncnc32)CC1(CO)CO |  |  | >100 µg/mL |
| C=C1[C@H](CO)[C@H]1Cn1cnc2c(Cl)ncnc21 |  |  | >100 µM |
| Nc1ncnc2c1ncn2C[C@H]1C[C@H]1CO | VERO |  | >50 µM |
| CC1=C[C@H](n2cnc3c(N)ncnc32)C[C@]1(C)CO |  |  | >100 µg/mL |
| NC1=NC2C(C=CN2CC(CO)CCO)C(=O)N1 |  | OST (TK-) | >250 µg/mL |
| NC1=NC2C(C=CN2CC(CO)CCO)C(=O)N1 |  |  | 0.01–0.1 µM |
| O=c1[nH]c(=O)n([C@@H]2O[C@H](O)[C@@H](O)[C@@H]2O)cc1C#Cc1ccc2c3cccc4cccc(c5cccc1c52)c43 | VERO | KOS | 0.131 µM |
| Nc1nc2c(ncn2COCCO)c(=O)[nH]1 |  |  | 0.15 µg/mL |
| CNc1ncnc2c1ncn2[C@@H]1S[C@@H](CO)C[C@@H]1N=[N+]=[N-] |  |  | >100 µg/mL |
| Cc1cn(C[C@H]2C[C@H]2CO)c(=O)[nH]c1=O | VERO |  | >50 µM |
| Cc1cccn2c(C3OCCS3)cnc12 | E6SM | VMW 1837 (TK+/TK-) | >1000 µM |
| [N-]=[N+]=N[C@@H]1C[C@@H](CO)S[C@H]1n1ccc(=O)[nH]c1=O |  |  | >100 µg/mL |
| CCc1cn([C@@H]2O[C@H](COP(=O)(O)O)[C@@H](O)[C@H]2O)c(=O)nc1N |  | F | >400 µg/mL |
| C=C(C[C@@H]1C(=C)CC[C@@H]2[C@@]3(C)CCC[C@@]12C(=O)OC3)c1ccoc1 | VERO |  | >20 µg/mL |
| CN1[C@@H]2CC[C@H]1CC(OC(=O)C(CO)c1ccccc1)C2 | HeLa |  | >400 µg/mL |
| CC(=O)OCCOCN1C(=O)C=CN(COCCO)S1(=O)=O | E6SM | McIntyre | >400 µg/mL |
| Nc1ccn([C@H]2CC[C@H](CO)O2)c(=S)n1 |  |  | >100 µM |
| O=c1[nH]c(=O)n(C2C[C@H](CO)[C@@H](CO)C2)cc1I | E6SM | KOS (TK-) | >100 µg/mL |
| C/C(=C\Cn1cc(I)c(=O)[nH]c1=O)CO |  |  | >100 µg/mL |
| O=C(O)CP(=O)(O)O | VERO |  | 57 µM |

Repeating the final 4 entries:

Nc1ccn([C@H]2CC[C@H](CO)O2)c(=S)n1 ; value: >100 µM
O=c1[nH]c(=O)n(C2C[C@H](CO)[C@@H](CO)C2)cc1I ; cell line: E6SM ; strain or isolate: KOS (TK-) ; value: >100 µg/mL
C/C(=C\Cn1cc(I)c(=O)[nH]c1=O)CO ; value: >100 µg/mL
O=C(O)CP(=O)(O)O ; cell line: VERO ; value: 57 µM

Blank or dashed fields: not listed here. Neighbouring rows are from separate reports. ECn is the concentration giving n% inhibition of infection, replication or growth.